Assay results: patent US9315482B2, “Derivatives useful as antiviral agents” (priority 2010, dated 2016)

What was measured:
[1] = tested on: RNA viruses; assay: Antiviral activity against nine RNA viruses (summary); conditions: for in vitro replication of all tested RNA viruses: nine RNA viruses, immunostaining, flow cytometry, virus titers or luciferase virus (FIGS. 1-6); for cell-type specificity of antiviral activity: observed in HEK-293T, MRC5, HuH-7, Jeg3, HeLa and A549 cell lines and human peripheral blood lymphocytes
[2] = tested on: chikungunya virus (CHIKV); conditions: Example 37, HEK-293T cells, Chik-ren, 24 hours, FIG. 11A

| Compound | in vitro replication of all tested RNA viruses [1] | cell-type specificity of antiviral activity [1] | in vitro replication of chikungunya (CHIKV) (renilla activity) [2] |
| --- | --- | --- | --- |
| O=c1oc2ccccc2c2c1C(c1c[nH]c3ccccc13)C([N+](=O)[O-])O2 (stereo not shown) [Example 123-G05, 3-(1H-Indol-3-yl)-2-nitro-2,3-dihydrofuro[3,2-c]chromen-4-one] | blocked | not cell-type specific | – |
| 3-(1H-5-chloroindol-3-yl)-2-nitro-2,3-dihydrofuro[3,2-c]chromen-4-one [DD771] | – | – | blocked |
| O=C1CCCc2occ(-c3cccc(Cl)c3)c21 [Example 129-G03, 3-(3-chlorophenyl)-6,7-dihydro-5H-benzofuran-4-one] | blocked | not cell-type specific | blocked |
| C=Cc1cccc(-c2coc3c2C(=O)CCC3)c1 [GAC50, 3-(3-ethenylphenyl)-6,7-dihydro-5H-benzofuran-4-one] | – | – | blocked |
